Measurements reported in PubChem BioAssay AID1259414 (Drosophila RNAi Screening Center, 2018).

Purpose: 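Host factors increasing or decreasing Wolbachia levels in cultured fly cells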 (primary screen)
Cell system: Drosophila JW18 cells infected with Wolbachia
Reagents: long dsRNA against Drosophila genes, 0.25 µg dsRNA per well of a 384-well plate
Duration: 5 days
Conditions: cells persistently infected with Wolbachia before knock-down; no added drug
Read-out: 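Imaged fluorescence in situ signal for Wolbachia 23S rRNA per DAPI-counted host cell, given as a robust z-score within each plate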
Reading the numbers: Wolbachia per cell robust z: higher = more Wolbachia per host cell than the plate typical
Call rule: 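Hit when robust z is 1.5 or more, or -1.5 or less, in at least two of three replicates; excludes dsRNAs with several or no targets, genes not expressed in JW18 and well A1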
The screen tested about 24,000 reagents; below is a random part of those that have a named target and a result. In the full data, about 1,210 (5%) got an active call. 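Inactive calls also include excluded dsRNAs with several or no targets, genes unexpressed in JW18, and well A1, regardless of score.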 Unmarked entries are inactive.

target gene | amplicon | Wolbachia per cell robust z, rep 1 | Wolbachia per cell robust z, rep 2 | Wolbachia per cell robust z, rep 3
chn | DRSC06086 | 1.29 (active) | 2.21 | 2.92
chn | DRSC29342 | 0.21 | 0.71 | -3.51
CG13126 | DRSC02222 | 0.984 | -0.638 | -3.94
CG13126 | DRSC27620 | -0.393 | 0.468 | 0.53
RpL36A | DRSC03055 | 1.77 (active) | 1.13 | 2.37
RpL36A | DRSC27375 | 0.855 | 0.198 | 0.181
emp | DRSC04019 | 0.311 | 0.179 | -0.107
emp | DRSC04683 | -1.16 | 0.88 | 0.821
Vamp7 | DRSC06599 | 0.0556 | -0.274 | -0.0898
CG5946 | DRSC10560 | 0.02 | -0.43 | 0.241
CG14717 | DRSC14940 | 0.726 | 1.82 | 0.428
CG12384 | DRSC06145 | 1.14 | 0.705 | 1.3
CG12384 | DRSC28713 | 0.0308 | 0.551 | 1.36

Entries above marked active (2):
target gene | amplicon | Wolbachia per cell robust z, rep 1 | Wolbachia per cell robust z, rep 2 | Wolbachia per cell robust z, rep 3
chn | DRSC06086 | 1.29 (active) | 2.21 | 2.92
RpL36A | DRSC03055 | 1.77 (active) | 1.13 | 2.37

Continued:
target gene | amplicon | Wolbachia per cell robust z, rep 1 | Wolbachia per cell robust z, rep 2 | Wolbachia per cell robust z, rep 3
fs(1)N | DRSC18578 | 1.21 | -2.78 | 0.0178
CG5815 | DRSC14135 | -2.05 | -0.796 | 0.373
CG5815 | DRSC27943 | -4.32 | 0.0722 | -0.52
Ipo9 | DRSC16813 | 0.526 | -0.228 | 0.82
CG33966 | DRSC08256 | 1.28 | 0.68 | 0.0869
CG33966 | DRSC25718 | -0.752 | -0.644 | -0.399
CG4382 | DRSC02743 | -0.734 | -1.32 | -1.28
CG4382 | DRSC29493 | -1.17 | -0.832 | -1.29
uif | DRSC03427 | -1.14 | -0.501 | -0.439
Rbp9 | DRSC00416 | 0.213 | 0.412 | 0.685
Rbp9 | DRSC00779 | -0.405 | -0.873 | 0.989
Rbp9 | DRSC29834 | -0.535 | 0.0985 | -0.891
PGRP-SA | DRSC19420 | 0.589 | 0.204 | -0.238
CG6693 | DRSC16097 | 0.284 | -0.137 | -0.0563
CG6693 | DRSC28189 | 1.38 | 1.02 | 0.0839
